From paper PMC11303703 (Scientific Reports, 2024)

The chains behind the UniProt entries cited, without tags or fusion partners. Residues count along the entry.
UniProt O12158, 1144-1431 limits assumed: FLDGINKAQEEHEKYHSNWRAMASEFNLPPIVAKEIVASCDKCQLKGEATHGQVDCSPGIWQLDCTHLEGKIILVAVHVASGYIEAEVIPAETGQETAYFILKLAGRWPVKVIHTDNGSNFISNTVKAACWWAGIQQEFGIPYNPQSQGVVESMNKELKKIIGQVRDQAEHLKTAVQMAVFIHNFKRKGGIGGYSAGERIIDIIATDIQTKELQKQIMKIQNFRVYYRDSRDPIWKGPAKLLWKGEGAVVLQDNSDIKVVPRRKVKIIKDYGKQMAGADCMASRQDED

Target: HIV-1 subtype C integrase (Human immunodeficiency virus type 1 group M subtype C, UniProt O12158)
Experiment: HIV-1 integrase strand transfer reaction assay
Type: biochemical
Conditions: read-out: Anti-HIV IC50; HIV-1 IN strand transfer; n = 3

L-chicoric acid
IC50: 8.099 ± 0.009 nM
